Results of unrelated studies side by side (data: NIAID ChemDB).

Shared fields: whole-cell or culture tests; agent: Vesicular stomatitis virus; method: cytopathic effect; read-out: EC50

Rows are shuffled and stem from different studies. ECn: concentration that inhibits the pathogen or its effect by n%. Blank or dashed fields: not listed here.

compound | strain | cell line | result
Nc1ncnc2c1c(Br)cn2[C@@H]1O[C@H](CO)[C@@H](O)[C@H]1O | - | PRK | 0.07 µg/mL
C[C@H](COc1cc(N)nc(N)n1)OCP(=O)(O)O | - | - | >180 µM
Cc1cn([C@H]2C[C@H](O)[C@@H](CO)O2)c(=O)[nH]c1=O | - | E6SM | >2000 µM
Nc1cc(OCCOCP(=O)(O)O)nc(N)n1 | - | - | >190 µM
Nc1nc(Cl)c2nnn(C[C@H]3CC[C@@H](CO)C3)c2n1 | - | HeLa | >200 µg/mL
Nc1nccc2c1ncn2[C@@H]1O[C@H](CO)[C@@H](O)[C@H]1O | - | HeLa | 2 µg/mL
Cc1cn([C@H]2C[C@H](O)[C@@H](CO)S2)c(=O)[nH]c1=O | - | E6SM | >2000 µM
OC[C@H]1O[C@@H](n2cnc3cc(Cl)c(Cl)cc32)[C@@H](O)[C@H]1O | - | HeLa | >100 µg/mL
NC(=O)c1csc([C@@H]2O[C@H](CO)[C@@H](O)[C@H]2O)n1 | Indiana | HeLa | 200 µg/mL
O[C@H]1[C@@H](O)COC(n2cnc3cc(Cl)c(Cl)cc32)[C@@H]1O | - | HeLa | >200 µg/mL
C[C@H](Cn1cnc2c(N)ncnc21)OCP(=O)(O)O | - | - | >525 µM
OC[C@H]1O[C@H](n2cnc3cc(Cl)c(Cl)cc32)[C@@H](O)[C@H]1O | - | HeLa | >200 µg/mL
Nc1nc2c(ncn2C[C@H]2CC[C@@H](CO)C2)c(=O)[nH]1 | - | E6SM | >400 µg/mL
Nc1ncnc2c1ccn2[C@@H]1O[C@H](CO)[C@@H](O)[C@H]1O | - | HeLa | 0.07 µg/mL
Nc1nccc2c1ncn2[C@@H]1C[C@H](CO)[C@@H](O)[C@H]1O | - | ESM | 0.2 µg/mL
Nc1ncnc2c1c(Br)cn2[C@@H]1O[C@H](CO)[C@@H](O)[C@H]1O | - | PRK/E6SM | 0.07 µg/mL
Nc1nccc2c1ncn2[C@@H]1C=C(CO)[C@@H](O)[C@H]1O | - | PRK | 0.07 µg/mL
C[C@H]1C[C@@H](n2cnc3c(N)ncnc32)[C@H](O)[C@@H]1O | - | E6SM | 0.7 µg/mL
NC(=O)c1ncn([C@@H]2O[C@H](CO)[C@@H](O)[C@H]2O)n1 | - | HeLa | 192 µM
OC[C@H]1O[C@@H](n2cnc3cc(Cl)c(Cl)cc32)[C@@H](O)[C@@H]1O | - | HeLa | >10 µg/mL
O=c1ccn([C@H]2C[C@H](O)[C@@H](CO)O2)c(=O)[nH]1 | - | E6SM | >2000 µM
Nc1nc(N)c2ncn(C[C@H]3CC[C@@H](CO)C3)c2n1 | - | HeLa | >200 µg/mL
CCOC(=O)C(CCSC[C@H]1O[C@@H](n2ccc3c(N)ncnc32)[C@H](O)[C@@H]1O)NC(=O)COC | - | HeLa | 70 µg/mL
Nc1nccc2c1ncn2[C@@H]1C[C@H](CO)[C@@H](O)[C@H]1O | - | HeLa | 4 µg/mL
Nc1ncnc2c1ncn2[C@@H]1OC(C#CI)[C@@H](O)[C@H]1O | - | E6SM | 0.08 µM
Nc1nccc2c1ncn2[C@@H]1C=C[C@@H](O)[C@H]1O | - | PRK | 0.2 µg/mL
CC(C)[Si]1(C(C)C)OC[C@H]2O[C@@H](n3cnc4cc(Cl)c(Cl)cc43)[C@@H](O)[C@H]2O[Si](C(C)C)(C(C)C)O1 | - | HeLa | >400 µg/mL
Nc1ccn([C@@H]2C[C@H](CO)[C@@H](O)[C@H]2O)c(=O)n1 | - | VERO | 7 µg/mL
Nc1ncnc2c1ncn2C[C@H](O)CO | - | HeLa | 4 µg/mL

For reference, 2 entries again:

compound	strain	cell line	result
Nc1ncnc2c1ncn2[C@@H]1OC(C#CI)[C@@H](O)[C@H]1O	-	E6SM	0.08 µM
Nc1cc(OCCOCP(=O)(O)O)nc(N)n1	-	-	>190 µM